Source: paper PMC7868322, “Rational Design of A Novel Small-Molecule HIV-1 Inactivator Targeting Both gp120 and gp41 of HIV-1” (Frontiers in Pharmacology, 2021)

Columns and labels:
[1] = system: HIV-1 IIIB (X4); assay: Inhibition of HIV-1 infection (p24 ELISA); assay type: cell-based
[2] = system: HIV-1 Bal (R5); assay: Inhibition of HIV-1 infection (p24 ELISA); assay type: cell-based; details: IC50 alone vs in mixture
[3] = average on IIIB and Bal infection

CC1(C)CC(NC(=O)C(=O)Nc2ccc(Cl)c(F)c2)CC(C)(C)N1C(=O)COc1ccc(CCN2C(=O)/C(=C/c3ccc(-c4ccc(Cl)c(C(=O)O)c4)o3)SC2=S)cc1 [FD028, (Z)-2-Chloro-5-(5-((3-(4-(2-(4-(2-((4-Chloro-3-Fluorophenyl)amino)-2-oxoacetamido)-2,2,6,6-Tetramethylpiperidin-1-yl)-2-oxoethoxy)phenethyl)-4-oxo-2-Thioxothiazolidin-5-ylidene)methyl)furan-2-yl)benzoic Acid]
Average inhibitory activity relative to FD016 [1, 3]: 57 fold
Average inhibitory activity relative to FD017 [1, 3]: 6 fold

O=C(O)c1cc(-c2ccc(/C=C3\SC(=S)N(CCc4ccc(O)cc4)C3=O)o2)ccc1Cl [FD017, (Z)-2-Chloro-5-(5-((3-(4-Hydroxyphenethyl)-4-oxo-2-Thioxothiazolidin-5-ylidene)methyl)furan-2-yl)benzoic Acid]
Dose reduction (FD017) ([1]; IIIB, IC50 alone vs in mixture): 3.05 fold
Dose reduction (FD017) [2]: 1.63 fold

CC1(C)CC(NC(=O)C(=O)Nc2ccc(Cl)c(F)c2)CC(C)(C)N1 [FD016, N^1-(4-Chloro-3-Fluorophenyl)-N^2-(2,2,6,6-Tetramethylpiperidin-4-yl) Oxalamide]
Dose reduction (FD016) ([1]; IIIB, IC50 alone vs in mixture): 3.69 fold
Dose reduction (FD016) [2]: 10.31 fold

The amount applied is not stated for every result.
